This note sets out measurements from patent publication EP0404945A1 (priority 1989, dated 1990).

In experiment [1] the test system is ascarid ovi. Briefly: Ovocidal activity, production test, disinfection of ambient objects. The following applies: 3% aqueous solution.
For experiment [2], the system named is ascarid ovi. Briefly: Ovocidal activity, laboratory test on ascarid ovi on a watch glass. As to conditions: 3% aqueous solution. The format is in vivo, pig.ascarid.
Experiment [3] deals with Virus of hepatitis B. The experiment is described as follows: Virucidal activity, HBsAg titre in serum after exposure. As to conditions: 1% solution in 0.85% sodium chloride solution.
The subject of experiment [4] is virus of influenza, type A, (H1N1). The experiment is described as follows: Virucidal activity, virus titre in allantoic liquid by hemagglutination reaction. As to conditions: 1% solution.

For the compound `CCOP(=O)(O)NC(CCl)C(O)c1ccc([N+](=O)[O-])cc1` (stereo not drawn) [Example 30], in experiment [1], the “Death of ascarid ovi, % Tests production” value is 99%.

`CCOP(=O)(O)NC(CO)C(O)c1ccc([N+](=O)[O-])cc1` (stereo not drawn) [Example 29, 1-para-nitrophenyl-1,3-propanediolamidophos-phoric acid ethyl ether]: the “Death of ascarid ovi, % Tests production” value in experiment [1] stood at 97%.

With `COP(=O)(O)NC(CCl)C(O)c1ccc([N+](=O)[O-])cc1` (stereo not drawn), in experiment [2], the “Death of ascarid ovi, % Tests laboratory” value was 100%. Besides, the “Death of ascarid ovi, % Tests production” value in experiment [1] turned out to be 98%.

As to `COP(=O)(O)NC(CO)C(O)c1ccc([N+](=O)[O-])cc1` (stereo not drawn), the “Death of ascarid ovi, % Tests laboratory” value in experiment [2] is reported as 100%. In experiment [1], the “Death of ascarid ovi, % Tests production” value was 99%.

Take `COP(=O)(O)NC(CCl)C(Cl)c1ccc([N+](=O)[O-])cc1` (stereo not drawn): in experiment [2], the “Death of ascarid ovi, % Tests laboratory” value is 100%. Besides, in experiment [1], the “Death of ascarid ovi, % Tests production” value amounted to 100%.

`CCOP(=O)(O)NC(CCl)C(Cl)c1ccc([N+](=O)[O-])cc1` (stereo not drawn) [Example 31, 1-para-nitrophenyl-1,3-dichloropropanamidophosphor-ic acid ethyl ether]: in experiment [1], the “Death of ascarid ovi, % Tests production” value was 98%.

In the case of `CNC(=S)S` [Known ovocidal preparation (carbathion), sodium N-methyldithiocarbamate dihydrate, reference compound], the “Death of ascarid ovi, % Tests production” value in experiment [1] stood at 78%.

Take “di-[d(-)-threo-3-para-nitrophenyl-2-di- chloracetamido-3-hydroxypropyl ether]d(+)-threo-1-para--nitrophenyl-1,3-dihydroxyisopropylamidophosphoric acid”: in experiment [3], the “Death of viruses (%) at 30 minutes exposure, Virus of hepatitis B” value was 100%. Also, the “Death of viruses (%) at 30 minutes exposure, Virus of influenza A” value in experiment [4] came to 100%.
